What was measured:
Assay type in all cases: cell-based, human cytomegalovirus
HCMV TB40 [1] = assay: Drug combination with letermovir, plaque assay TB40, Bliss model; conditions: >1 synergy, <1 antagonism, =1 additive
Procedure: (§1) Drug combination and analysis: These experiments were performed as previously reported^40. The combination of GCV and each compound was tested using the pp28-luciferase. Briefly, 2×10^6 HFFs/plate were seeded in 96-well plates and infected with the pp28-luciferase Towne HCMV strain (MOI=1). First, a dose response curve was generated for each drug individually to determine its EC50. Then, drugs were combined at twice their EC50, diluted in DMEM with 4% FBS, followed by serial dilution and added together after infection. Luciferase activity of the combination and each drug individually was quantified at 72 hpi. The combination of letermovir and each of the new compounds was tested by the plaque assay using TB40. The same principle applied in this assay for the drug combination effect, and plaques were counted at 8 dpi. The Bliss model was used to calculate the effect of each drug combination on pp28-luciferase activity and plaque reduction. In this model, drug combination represents the product of two probabilistically independent events as described in the following equation^41.
(§2) [formula] Where D is the drug concentration, m is the slope, and EC50 is the effective concentration resulting in 50% virus inhibition. The combined effect of two inhibitors (Fu, fractional unaffected) is computed as the product of individual effects of the two inhibitors, Fu1 and Fu2. If the ratio of observed fold inhibition divided by the expected fold inhibition is greater than 1, the compounds are synergistic. If the ratio is less than 1, the combination is considered antagonistic, and if it equals to 1 the combination is additive.
Pattern of drug combination with GCV and letermovir: The effect of each compound alone or in combination with GCV or letermovir was tested in HCMV-infected HFFs. […] A ratio of observed fold inhibition divided by the expected fold inhibition of >1 was considered drug synergy, <1 as drug antagonism, and =1 as additive. For letermovir and its combination with each of the five compounds the EC50 was determined based on plaque assay. The combination of GCV and 2955 was also tested by plaque assay. All other combinations and Bliss coefficients were measured by pp28- luciferase.

[2] = system: pp28-luciferase Towne HCMV; assay: Drug combination with GCV, pp28-luciferase Towne, Bliss model; conditions: >1 synergy, <1 antagonism, =1 additive
Procedure: as §1, §2
Pattern of drug combination with GCV and letermovir: The effect of each compound alone or in combination with GCV or letermovir was tested in HCMV-infected HFFs. […] For letermovir and its combination with each of the five compounds the EC50 was determined based on plaque assay. […] All other combinations and Bliss coefficients were measured by pp28- luciferase.

HCMV TB40 [3] = assay: Plaque reduction assay, HCMV TB40 in HFFs; conditions: slope parameter (analogous to the Hill coefficient) of the dose response
Procedure: Plaque reduction assay: HFFs were seeded into 12-well plates (2×10^5 cells/well) and infected with HCMV TB40 at approximately 100 plaques/well. After 90 min, media were aspirated, and DMEM containing 0.5% carboxymethyl-cellulose (CMC), 4% fetal bovine serum (FBS), and drugs were added into duplicate wells. Following incubation at 37° C. for 10-12 days the overlay was removed, and plaques were counted after crystal violet staining. For HSV1 and HSV2 replication in Vero cells, the adsorption time was 60 min and plaques were counted after 36 h. Plaque assays in MEFs were completed after 3 days.
Viral protein expression was measured by Western blot.

SMILES: Nc1c(S(=O)(=O)c2cccs2)c2nc3ccccc3nc2n1Cc1ccccc1 [MLS8091]
- Bliss Coefficient (HCMV TB40 [1]): 1.3
- Bliss Coefficient [2]: 1.3
- Slope (HCMV TB40 [3]): 1.34 ± 0.1

SMILES: CC(C)NC(=O)C1CCN(C(=O)c2cc3sccc3n2Cc2ccc(Cl)cc2)CC1 [NCGC2955, 1-(4-(4-chlorobenzyl)-4H-thieno[3,2-b]pyrrole-5-carbonyl)-N-isopropylpiperidine-4-carboxamide]
- Bliss Coefficient (HCMV TB40 [1]): 1.09
- Slope (HCMV TB40 [3]): 0.80 ± 0.1

SMILES: CCc1ccc(NC(=O)[C@H](Cc2c[nH]c3ccccc23)NC(=O)[C@@H]2Cc3ccccc3CN2)cc1 [MLS8554]
- Bliss Coefficient (HCMV TB40 [1]): 0.97
- Bliss Coefficient [2]: 1.08
- Slope (HCMV TB40 [3]): 1.02 ± 0.1

SMILES: CCN1CCN(CCCNC(=O)c2ccc3c(c2)sc2nc(-c4ccc(OC)cc4)cn23)CC1 [NFU1827, N-[3-(4-ethylpiperazin-1-yl)propyl]-4-(4-methoxyphenyl)-7-thia-2,5-diazatricyclo [6.4.0.02,6] dodeca-1(8),3,5,9,11-pentaene-10-carboxamide]
- Bliss Coefficient (HCMV TB40 [1]): 1.2
- Bliss Coefficient [2]: 1.17
- Slope (HCMV TB40 [3]): 1.27 ± 0.1
